Biological target: the molecule itself
Assay: fluorescence polarisation

B1: Orf9b Delta variant (T60A), refolded (natural protein)
chain: not shown
Question: Which Kd does the source give for B1 here?
Answer: The Kd was 12 µM.
